Pooled drug test results. Numbers come from NIAID ChemDB, via PubChem.

Common to all: cytotoxicity tests; endpoint: CC50

Neighbouring rows are from separate reports. Blank or dashed fields: not listed here. CCn: concentration that lowers growth or viability of the cells by n%.

smiles | cell line | method | result
O=C(CNC(=O)c1ccc(-c2cscn2)cc1)NCc1ccccc1 | HS68 |  | <2.5 µM
CCOC(=O)C1=C(CN2CC(F)(F)[C@@H]3[C@H]2CON3CC[C@@](C)(O)C(=O)O)NC(c2nccs2)=N[C@H]1c1cccc(F)c1C | HepG2.2.15 | WST / absorbance | >100 µM
Nc1nc(-c2ccc(NC(=O)CCNCc3cccc(F)c3)cc2)cs1 | HS68 |  | <3.7 µM
Cc1ccc(-n2ncc3c(Nc4ccc(C(F)(F)F)cc4)ncnc32)c(C)c1 | HUH 9B |  | 22 µM
CC1(C)[C@@H](O)CC[C@]2(C)[C@H]3C(=O)C=C4[C@@H]5C[C@@](C)(C(=O)OCc6ccccc6C#N)CC[C@]5(C)CC[C@@]4(C)[C@]3(C)CC[C@@H]12 | HepG2.2.15 |  | >1540 µM
CCOC(=O)c1[nH]c2c(c1NC(N)=S)C1=C(CCC/C1=C\c1ccncc1)C(c1ccncc1)S2 | MCF-7 | MTT | >50 µM
CCOC(=O)C1=C(CN2CC(F)(F)[C@H]3[C@@H]2CCN3C[C@@H](O)C(C)(C)C(=O)O)NC(c2nccs2)=N[C@H]1c1cccc(F)c1C#N | HepG2.2.15 | WST / absorbance | 19.1 µM
CCn1c(-c2ccccn2)cc(=O)c2cc(C(C)C)ccc21 | HELA-OHIO | MTT | 68 µg/mL
N#Cc1c(-c2ccccc2)s[nH]c1=S | L929 |  | 60 µM
COC(=O)CCCC1=NCCc2cc(OC)c(OC)cc21 | BJ |  | <7.5 µM
Nc1c2c(nc(=O)n1-c1ccccc1)SC(c1ccncc1)C1=C2/C(=C/c2ccncc2)CCC1 | CNE-2 | MTT | 14.7 µM
CC[C@H](C)[C@H]1OC(=O)[C@H](C(C)C)N(C)C(=O)[C@@H]([C@@H](C)CC)OC(=O)[C@H](C(C)C)N(C)C(=O)[C@@H]([C@@H](C)CC)OC(=O)[C@H](C(C)C)NC1=O | NCI-H187 | absorbance | 2.29 µM
CC(C)c1ccccc1NC(=O)NCCc1cccc(-n2ccnc2)n1 | PBMC |  | 22 µM
CCCOc1ccc2c(c1)c(=O)c(C)c(-c1ccccc1)n2CC | HeLa S3 | MTT | >10 µg/mL
N#Cc1csnc1-c1ccccc1 | HEP-2 |  | 100 µM
COc1ccc(Cl)cc1Nc1ncnc2c1cnn2-c1ccc(F)cc1F | HUH 9B |  | >50 µM
CCOC(=O)C1=C(CN2CC(F)(F)[C@@H]3[C@H]2CON3C[C@@H](F)C(C)(C)C(=O)O)NC(c2nccs2)=N[C@H]1c1ccc(F)c(F)c1F | HepG2.2.15 | WST / absorbance | >25 µM
CC(C)C[C@@H]1NC(=O)[C@H](Cc2c[nH]c3ccccc23)NC(=O)[C@@H](CCCCN)NC(=O)[C@H](CC(N)=O)NC(=O)[C@H](CC(C)C)NC(=O)[C@@H](CC(C)C)NC1=O | Lung carcinoma cells | MTT | >30 µM
CCOC(=O)CCCCCOc1cccc(CN(C(=O)c2ccc(-c3ccco3)cc2)C(C)C)c1 | RAJI |  | >20 µM
COC(=O)C1=C(CN2CC(F)(F)[C@@H]3[C@H]2CON3C[C@H](OC)C(C)(C)C(=O)O)NC(c2ncoc2C)=N[C@H]1c1ccc(F)cc1Cl | HepG2.2.15 | WST / absorbance | >100 µM
CC1(C)[C@@H](O)CC[C@]2(C)[C@H]3C(=O)C=C4[C@@H]5C[C@@](C)(C(=O)OCc6ccc(Br)cc6F)CC[C@]5(C)CC[C@@]4(C)[C@]3(C)CC[C@@H]12 | HepG2.2.15 |  | >1430 µM
CN(CCc1ccccn1)C(=O)Nc1ccc(-c2csc(N)n2)cc1 | HS68 |  | <144 µM
Cc1ccc(-n2ncc3c(NC(=O)Nc4cccc(C(F)(F)F)c4)ncnc32)c(C)c1 | HUH 9B |  | 22 µM
CSc1nsc(-c2cc[n+](C)cc2)c1C#N | HEP-2 |  | 1000 µM
Nc1nc(N)nc(OC[C@H]2CC[C@@H](CO)O2)n1 | L1210 |  | >250 µM
O=C(NCCc1ccc2c(n1)NCCC2)Nc1ccccc1OC(F)F | PBMC |  | 50 µM
N#Cc1c(-c2ccccc2)nsc1Cl | L929 |  | 20 µM
COC(=O)C1=C(CN2CC(F)(F)[C@@H]3[C@H]2CON3C[C@H](O)C(C)(C)C(=O)O)NC(c2nccs2)=N[C@H]1c1cccc(F)c1Cl | HepG2.2.15 | WST / absorbance | >100 µM
CCOc1ccccc1CNC(=O)NCCc1ccc2c(n1)NCCC2 | PBMC |  | 50 µM
CC1(C)[C@@H](O)CC[C@]2(C)[C@H]3C(=O)C=C4[C@@H]5C[C@@](C)(C(=O)OCc6ccc(S(C)(=O)=O)cc6)CC[C@]5(C)CC[C@@]4(C)[C@]3(C)CC[C@@H]12 | HepG2.2.15 |  | 1030 µM
O=C1Sc2nc3c(c(=S)n2C/C1=C/c1ccccc1)C1=C(CCC/C1=C\c1ccncc1)C(c1ccncc1)S3 | KB | MTT | 23.4 µM
N=c1nc(N)c2ncn([C@@H]3O[C@H](CO)[C@@H](O)[C@H]3O)c2c(N)n1 | HFF (dividing cells) |  | >100 µM
COc1cc(/C=C/C(=O)O[C@H]2CC[C@]3(C)[C@H]4CC=C5[C@@H]6C[C@@](C)(C(=O)OCC(N)=O)CC[C@]6(C)CC[C@@]5(C)[C@]4(C)CC[C@H]3C2(C)C)cc(OC)c1OC | HepG2.2.15 |  | >481 µM
O=C(NCC1CCc2ccccc2N1)Nc1ccc(Cl)cc1 | PBMC |  | 12.4 µM
Nc1c2c(nc(=S)n1-c1ccccc1)SC(c1ccncc1)C1=C2/C(=C/c2ccncc2)CCC1 | CNE-2 | MTT | 14.2 µM
O=C(NCCc1ccc2c(n1)NCCC2)Nc1cccnc1 | PBMC |  | 50 µM
CCn1c(-c2nccs2)cc(=O)c2cc(C(C)C)ccc21 | HELA-OHIO | MTT | 32 µg/mL
O=C(NCCc1ccc2c(n1)NCCC2)Nc1cccc(Oc2ccccc2)c1 | PBMC |  | 5.3 µM
O=C1CCn2c(nc3c(c2=S)C2=C(CCC/C2=C\c2ccncc2)C(c2ccncc2)S3)S1 | KB | MTT | 40.4 µM
CCCCNC(=S)N=Nc1c(O)[nH]c2ccc([N+](=O)[O-])cc12 | MDBK |  | >50 µg/mL
CCOC(=O)CCCCCOc1cccc(CN(C(=O)c2ccc(-c3cc4ccccc4n3S(=O)(=O)c3ccccc3)cc2)C(C)C)c1 | HEK 293 |  | >20 µM
O=[N+]([O-])c1ccc2c(c1)c(N=NC(=S)Nc1ccccc1)c(O)n2CN1CCOCC1 | MDBK |  | >50 µg/mL
CC1(C)[C@@H](O)CC[C@]2(C)[C@H]3C(=O)C=C4[C@@H]5C[C@@](C)(C(=O)OCc6cccnc6)CC[C@]5(C)CC[C@@]4(C)[C@]3(C)CC[C@@H]12 | HepG2.2.15 |  | 321 µM
CC(C)N(Cc1cccc(OCCCCCC(=O)OC(=O)O)c1)C(=O)c1ccc(-c2cccc(C#N)c2)cc1 | HEK 293 |  | >20 µM
CCOC1N=C2C3=C(N=C(C)N2N1c1ccccc1)SC(c1ccncc1)C1=C3/C(=C/c2ccncc2)CCC1 | MGC-803 | MTT | 12.9 µM
OC[C@H]1O[C@@H](n2ccc3c(-c4cc5ccccc5o4)nc(Cl)nc32)C(O)C1O | MRC-5 fibroblast | MTT | 108.6 µM
OC[C@@H]1CC[C@H](COc2ncnc3nc[nH]c23)O1 | L1210 |  | >250 µM
Nc1nc(-c2ccc(NC(=O)NCCCn3ccnc3)cc2)cs1 | HS68 |  | <48 µM
CCOC1N=C2C3=C(N=CN2N1c1ccccc1)SC(c1ccncc1)C1=C3/C(=C/c2ccncc2)CCC1 | KB | MTT | 12.5 µM
CC(C)C[C@@H]1NC(=O)[C@H](Cc2c[nH]c3ccccc23)NC(=O)C(C)(C)NC(=O)[C@H](CCCCN)NC(=O)[C@H](C(C)C)NC(=O)[C@@H](CC(C)C)NC1=O | Colorectal carcinoma | MTT | >30 µM
CCOC(=O)C1=C(CN2CC(F)(F)[C@@H]3[C@H]2CON3C[C@H](O)C(C)(C)C(=O)O)NC(c2nccs2)=N[C@H]1c1ccc(F)c(F)c1Cl | HepG2.2.15 | WST / absorbance | 100 µM
Nc1nc(N)nc(OC[C@H]2CC[C@@H](COCc3ccccc3)O2)n1 | CAKI-1 |  | 134 µM
Nc1nc(-c2ccc(NC(=O)CN(Cc3ccccc3)C(=O)c3ccccn3)cc2)cs1 | HS68 |  | >36 µM
CCCCCCOC(=O)[C@@]1(C)CC[C@]2(C)CC[C@]3(C)C(=CC(=O)[C@@H]4[C@@]5(C)CC[C@H](O)C(C)(C)[C@@H]5CC[C@]43C)[C@@H]2C1 | HepG2.2.15 |  | 175 µM
CCOC(=O)CCCCCOc1cccc(CN(C(=O)c2ccccc2)C(C)C)c1 | BJ |  | >20 µM
CC(CN1CCc2ccccc2C1)NC(=O)Nc1ccc(C(F)(F)F)cc1 | PBMC |  | 50 µM
CCOC(=O)CCCCCOc1cccc(CN(C(=O)c2ccc(-c3cccc(OC(F)(F)F)c3)cc2)C(C)C)c1 | HepG2 |  | >20 µM
Nc1nc(Cl)cc(OC[C@H]2O[C@H](COCc3ccccc3)[C@@H](OCc3ccccc3)[C@H]2OCc2ccccc2)n1 | L1210 |  | >250 µM
Cc1sccc1NC(=O)NCCc1ccc2c(n1)NCCC2 | PBMC |  | 50 µM
CCOC(=O)C1=C(CN2CC(F)(F)[C@@H]3[C@H]2CON3C[C@H](O)C(C)(C)C(=O)O)NC(c2nccs2)=N[C@H]1c1cccc(F)c1Cl | HepG2.2.15 | WST / absorbance | >100 µM
CC(C)C[C@@H]1NC(=O)[C@H](Cc2c[nH]c3ccccc23)NC(=O)[C@@H](CCCCN)NC(=O)[C@H](CCC(N)=O)NC(=O)[C@H](CC(C)C)NC(=O)[C@@H](CC(C)C)NC1=O | Colorectal carcinoma | MTT | >30 µM
CCOC(=O)C1=C(CN2CC(F)(F)[C@@H]3[C@H]2CON3C[C@@H](F)C(C)(C)C(=O)O)NC(c2nccs2)=N[C@H]1c1cccc(F)c1Cl | HepG2.2.15 | WST / absorbance | 76.7 µM
Cc1cccc(CNC(=O)NCCc2ccc3c(n2)NCCC3)c1 | PBMC |  | 50 µM
Nc1ccnc(OC[C@H]2CC[C@@H](CO)O2)n1 | CAKI-1 |  | 202 µM
CSc1nsc(-c2ccccc2Cl)c1C#N | L929 |  | 5 µM
NS(=O)(=O)c1ccc(CCNc2ncnc3c2cnn3-c2ccc(Cl)cc2Cl)cc1 | HUH 9B |  | 10 µM
CC(C)C[C@@H]1NC(=O)[C@H](Cc2c[nH]c3ccccc23)NC(=O)[C@H]2CCCN2C(=O)[C@H](CCCCN)NC(=O)[C@H](C(C)C)NC(=O)[C@@H](CC(C)C)NC1=O | Colorectal carcinoma | MTT | >30 µM
CCOC(=O)COc1ccc(CN(C(=O)c2ccc(-c3ccc4c(c3)OCO4)cc2)C(C)C)cc1 | BJ |  | >20 µM
CCOC(=O)C1=C(CN2CC(F)(F)[C@@H]3[C@H]2CON3C[C@@H](OC)C(C)(C)C(=O)O)NC(c2nccs2)=N[C@H]1c1cccc(F)c1Cl | HepG2.2.15 | WST / absorbance | >50 µM
COc1ccc(-c2snc(SC)c2C#N)cc1 | L929 |  | 10 µM
CCn1c(-c2cccc(OC)c2)c(C)c(=O)c2cc(C(C)C)ccc21 | HELA-OHIO | MTT | >8 µg/mL
OC[C@H]1O[C@@H](n2ccc3c(-c4cccs4)nc(F)nc32)C(O)C1O | BJ fibroblasts | MTT | 136 µM
Cc1ccc(N2C(=O)CS/C2=N/N=C2\C(=O)Nc3ccc([N+](=O)[O-])cc32)cc1 | MDBK |  | >50 µg/mL
Clc1nnnc2c1C1=C(CCC/C1=C\c1ccncc1)C(c1ccncc1)S2 | CNE-2 | MTT | 13.3 µM
CC(C)C[C@@H]1NC(=O)[C@H](Cc2c[nH]c3ccccc23)NC(=O)[C@@H](CCCCN)NC(=O)[C@H](C)NC(=O)[C@H](C(C)C)NC(=O)[C@@H](CC(C)C)NC1=O | Colorectal carcinoma | MTT | >30 µM
Cc1nc(N)nc2c1ccn2[C@@H]1O[C@H](CO)C(O)C1O | K562 leukemia cells | MTT | 12.4 µM
Cc1cc(=O)[nH]c2c1ccc1ncc(C(=O)O)c(C)c12 | CAKI-1 |  | 8 µg/mL
Cc1cc2c(c(C)c1OCC(C)C)c(=O)c(C)c(-c1ccccc1)n2C | HELA-OHIO | MTT | >5 µg/mL
COc1cc(OC[C@H]2CC[C@@H](CO)O2)ncn1 | CAKI-1 |  | 150 µM
OC[C@H]1O[C@@H](n2ccc3c(-c4cc5ccccc5o4)nc(F)nc32)C(O)C1O | CCRF-CEM leukemia cells | MTT | 38.1 µM
CCCCOC(=O)[C@@]1(C)CC[C@]2(C)CC[C@]3(C)C(=CC(=O)[C@@H]4[C@@]5(C)CC[C@H](O)C(C)(C)[C@@H]5CC[C@]43C)[C@@H]2C1 | HepG2.2.15 |  | >986 µM

Repeating the final 7 entries:

smiles,cell line,method,result
CC(C)C[C@@H]1NC(=O)[C@H](Cc2c[nH]c3ccccc23)NC(=O)[C@@H](CCCCN)NC(=O)[C@H](C)NC(=O)[C@H](C(C)C)NC(=O)[C@@H](CC(C)C)NC1=O,Colorectal carcinoma,MTT,>30 µM
Cc1nc(N)nc2c1ccn2[C@@H]1O[C@H](CO)C(O)C1O,K562 leukemia cells,MTT,12.4 µM
Cc1cc(=O)[nH]c2c1ccc1ncc(C(=O)O)c(C)c12,CAKI-1,,8 µg/mL
Cc1cc2c(c(C)c1OCC(C)C)c(=O)c(C)c(-c1ccccc1)n2C,HELA-OHIO,MTT,>5 µg/mL
COc1cc(OC[C@H]2CC[C@@H](CO)O2)ncn1,CAKI-1,,150 µM
OC[C@H]1O[C@@H](n2ccc3c(-c4cc5ccccc5o4)nc(F)nc32)C(O)C1O,CCRF-CEM leukemia cells,MTT,38.1 µM
CCCCOC(=O)[C@@]1(C)CC[C@]2(C)CC[C@]3(C)C(=CC(=O)[C@@H]4[C@@]5(C)CC[C@H](O)C(C)(C)[C@@H]5CC[C@]43C)[C@@H]2C1,HepG2.2.15,,>986 µM